Laboratory results: patent US20060115815A1 (priority 2002, published 2006)

Target: 84V90M (Human immunodeficiency virus type 1 group M subtype B, UniProt P04585, I572V/L578M)
Experiment: Cell-based assay (MT-4) EC50, 84V90M
Design: species or system HIV-1
Details: read-out: Cell-based assay (MT-4) EC50 84V90M; MT-4, 84V90M; tested form: TFA

## CCOP(=O)(COc1ccc(C[C@@H]2[C@H](O)[C@@H](O)[C@@H](Cc3ccccc3)N(Cc3ccc4[nH]ncc4c3)C(=O)N2Cc2ccc3[nH]ncc3c2)cc1)OCC
  EC50: 40 nM
